Results taken from patent publication US20200200749A1 (published 2020).

Experiments:
Assay in all cases: ELISA
[1] = target: T1, EBOV GP (recombinant, full-length extracellular domain) (EBOV (Ebola Zaire), UniProt Q05320 33-650)
T1 chain: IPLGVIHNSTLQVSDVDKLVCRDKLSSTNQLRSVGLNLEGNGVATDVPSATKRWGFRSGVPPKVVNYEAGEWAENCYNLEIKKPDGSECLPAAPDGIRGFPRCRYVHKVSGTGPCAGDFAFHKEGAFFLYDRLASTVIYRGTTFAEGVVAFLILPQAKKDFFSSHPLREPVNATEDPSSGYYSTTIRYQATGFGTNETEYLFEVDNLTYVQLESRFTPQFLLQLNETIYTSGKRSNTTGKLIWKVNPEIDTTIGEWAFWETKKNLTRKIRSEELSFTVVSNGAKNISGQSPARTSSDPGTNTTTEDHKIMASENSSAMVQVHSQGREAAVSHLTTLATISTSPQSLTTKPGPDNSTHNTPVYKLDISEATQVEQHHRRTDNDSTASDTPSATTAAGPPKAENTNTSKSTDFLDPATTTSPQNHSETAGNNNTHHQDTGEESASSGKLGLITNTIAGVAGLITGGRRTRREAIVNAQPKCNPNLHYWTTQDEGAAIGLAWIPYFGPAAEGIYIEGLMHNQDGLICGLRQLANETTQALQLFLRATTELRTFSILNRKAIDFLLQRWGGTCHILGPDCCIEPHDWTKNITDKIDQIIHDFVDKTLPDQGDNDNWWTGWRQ

SUDV GP (recombinant) = target: T2, SUDV GP (recombinant) (SUDV (Sudan ebolavirus), UniProt Q66814 33-650)
T2 chain: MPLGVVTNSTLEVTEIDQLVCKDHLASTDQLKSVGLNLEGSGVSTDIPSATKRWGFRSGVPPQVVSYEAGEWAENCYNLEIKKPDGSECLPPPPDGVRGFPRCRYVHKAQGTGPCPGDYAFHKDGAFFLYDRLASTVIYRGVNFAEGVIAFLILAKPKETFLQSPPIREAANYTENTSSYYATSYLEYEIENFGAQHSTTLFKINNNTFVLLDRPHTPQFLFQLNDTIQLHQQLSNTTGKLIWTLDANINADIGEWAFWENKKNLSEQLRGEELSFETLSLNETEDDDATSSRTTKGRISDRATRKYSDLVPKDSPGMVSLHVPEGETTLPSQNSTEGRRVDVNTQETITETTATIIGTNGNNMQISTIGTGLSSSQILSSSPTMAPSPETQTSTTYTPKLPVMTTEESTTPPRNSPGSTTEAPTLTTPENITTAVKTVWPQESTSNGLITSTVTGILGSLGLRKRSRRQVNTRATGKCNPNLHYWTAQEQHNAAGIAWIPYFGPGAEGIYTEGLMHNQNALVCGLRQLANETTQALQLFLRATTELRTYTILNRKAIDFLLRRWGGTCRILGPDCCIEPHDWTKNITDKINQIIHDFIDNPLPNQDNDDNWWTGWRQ

EBOV sGP = target: T3, EBOV sGP (EBOV (Ebola Zaire), UniProt P60170 33-324)
T3 chain: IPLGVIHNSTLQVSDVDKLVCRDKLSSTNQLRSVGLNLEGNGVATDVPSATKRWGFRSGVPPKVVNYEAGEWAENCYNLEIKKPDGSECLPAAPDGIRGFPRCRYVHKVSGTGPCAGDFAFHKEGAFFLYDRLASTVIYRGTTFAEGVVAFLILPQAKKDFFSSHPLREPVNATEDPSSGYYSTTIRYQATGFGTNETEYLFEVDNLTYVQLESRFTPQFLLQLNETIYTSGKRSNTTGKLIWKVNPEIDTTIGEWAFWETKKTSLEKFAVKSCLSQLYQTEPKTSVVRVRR

MARV GP = target: MARV GP

B1: EBOV157 (antibody, V domains shown)
VH: QVQLVQSGGGLVQPGGSLRLSCAASGFTVSNNYMSWVRQAPGKGLEWVSIFYSDGTTYNADSVKGRFTISRDNSKNTLYLQMNSLRAEDTAVYYCARQASGYDAYYMDVWGQGTLVTVSS
VL: DIVMTQSPSTLSASVGDRVTITCRASQSINSWLAWYQQKPGKAPKLLIYQASTLERGVPSRFSGSGAGTEFTLTISSLQPDDFATYYCQQYSSFPLTFGGGTKVELK
B1 was tested, and the EC50 [1] was 0.126 µg/mL, the EC50 (SUDV GP (recombinant)) was > 10 µg/mL and the EC50 (EBOV sGP) was 1.45 µg/mL.

B2: 157 (antibody, V domains shown)
VH: B1 VH
VL: B1 VL
With B2 the EC50 (MARV GP) was > 10 µg/mL.
